Compound potency records, mixed from different reports. Data source: NIAID ChemDB in PubChem.

Common to all: tests in culture; organism: Pneumocystis carinii; read-out: EC50

Rows are shuffled and stem from different studies. ECn: concentration that inhibits the pathogen or its effect by n%. An empty or dashed field is not shown.

compound	cell line	conditions	method	result
CCc1c(O)c(=O)ccn1CCOC	Human fibroblasts	7 d	-	<72 µM
CCCCCCCCN=C(N)c1ccc(N2CCN(c3ccc(C(N)=NCCCCCCCC)cc3)CC2)cc1	-	-	ATP	0.18 µg/mL
Cl.Cl.N=C(N)c1ccc(NC(=O)CCCC(=O)Nc2ccc(C(=N)N)cc2)cc1	A549	-	ATP	0.001 µg/mL
c1cc(N2CCCN(c3ccc(C4=NCCCN4)cc3)CC2)ccc1C1=NCCCN1	-	-	-	<1 µM
CC(=O)c1ccc(N2CCN(c3ccc(C(C)=O)cc3)CC2)cc1	-	-	ATP	>100 µg/mL
N=C(N)c1ccc(N2CCCN(c3ccc(C(=N)N)cc3)CC2)cc1	-	-	-	<1 µM
NC(N)=NC(=O)c1nc(Cl)c(N)nc1N	-	-	-	>100 µM
c1cc(N2CCN(c3ccc(C4OCCO4)cc3)CC2)ccc1C1OCCO1	-	-	ATP	>100 µg/mL
NC(=NCCO)c1ccc(N2CCCN(c3ccc(C(N)=NCCO)cc3)CC2)cc1	-	-	-	>1 µM
Cc1c(O)c(=O)ccn1C	Human fibroblasts	7 d	-	<72 µM
Cl.Cl.NC(=NC1CCCCCCC1)c1ccc(N2CCN(c3ccc(C(N)=NC4CCCCCCC4)cc3)CC2)cc1	A549	-	ATP	0.019 µg/mL
NC(=NC1CCCCCCC1)c1ccc(N2CCN(c3ccc(C(N)=NC4CCCCCCC4)cc3)CC2)cc1	-	-	ATP	0.195 µg/mL
CC(=O)N(O)CCCCCNC(=O)CCC(=O)N(O)CCCCCNC(=O)CCC(=O)N(O)CCCCCN	Human fibroblasts	7 d	-	<30 µM
c1ccc2[nH]c(-c3ccc(N4CCN(c5ccc(-c6nc7ccccc7[nH]6)cc5)CC4)cc3)nc2c1	-	-	ATP	0.711 µg/mL
COCCn1ccc(=O)c(O)c1C	Human fibroblasts	7 d	-	<72 µM

The first 2 rows once more:

| compound | cell line | conditions | method | result |
|---|---|---|---|---|
| CCc1c(O)c(=O)ccn1CCOC | Human fibroblasts | 7 d | - | <72 µM |
| CCCCCCCCN=C(N)c1ccc(N2CCN(c3ccc(C(N)=NCCCCCCCC)cc3)CC2)cc1 | - | - | ATP | 0.18 µg/mL |